Results of unrelated studies side by side (data: NIAID ChemDB).

All rows: whole-cell or culture tests; organism: Mycobacterium tuberculosis

Inhibition is in % at the dose shown (toxicity tests: loss of growth or viability).

SMILES	strain	read by	measure	tested at	result
O=C(N[C@@H]1COc2nc([N+](=O)[O-])cn2C1)Oc1ccc(OC(F)(F)F)cc1	H37Rv	resazurin	MIC		>64 µM
CC1=CC(=O)c2c(O)cccc2C1=O	H37Ra ATCC 25177	broth dilution	MBC		16 µg/mL
CC(C)(C)c1ncc(CCCN=C(N)N)[nH]c1=O	KM-R		MIC		6.3 µg/mL
CC1CN(c2nc3c(cc2[N+](=O)[O-])c(=O)c(C(=O)O)c2sc4ccccc4n23)CC(C)O1	H37Rv (MTB)		MIC100		1.72 µM
Nc1c(C(=O)NCCc2ccccc2)c2nc3c(C(=O)NCCc4ccccc4)cccc3oc-2cc1=O	H37Rv	BACTEC	inhibition	12.5 µg/mL	-13%
N#Cc1ccc2c(c1)[n+]([O-])c(C#N)c(N)[n+]2[O-]	H37Rv		MIC		<12.5 µg/mL
NC[C@H]1O[C@H](O[C@H]2[C@H](O)[C@@H](O[C@H]3O[C@H](CO)[C@@H](O)[C@H](N)[C@H]3O)[C@H](N)C[C@@H]2N)[C@H](N)[C@@H](O)[C@@H]1O	H37Ra		MIC		2–5 µg/mL
CCOC1Oc2ccc(C)cc2C(=O)/C1=C\Nc1ccc(C(=O)O)c(O)c1	H37Rv		MIC		25 µg/mL
COC(=O)C(Cc1nc2ccc(Cl)cc2[nH]c1=O)C(=O)C(=O)Nc1ccccc1[N+](=O)[O-]	H37Rv	resazurin	MIC bound		>6.25 µg/mL
Cc1cc2c(cc1C)[n+]([O-])c(NC(=O)OC(C)C)c(C#N)[n+]2[O-]	H37Rv		MIC		<12.5 µg/mL
Cc1ccc(-c2cc(-c3ccc(Cl)cc3)nc(/N=C3\C(=O)N(CN4CCOCC4)c4ccc(Cl)cc43)n2)cc1	H37Rv	BACTEC	EC50		<6.25 µg/mL
Cc1cc(NC(=O)C(F)(F)F)c(-c2ccccc2)c(=O)[nH]1	H37Ra		MIC		>256 µg/mL
CN1CCN(Cc2ccc(NC(=O)c3ccc(-c4ccccc4)cc3)cc2)CC1	103471		MIC		>16 µg/mL
O=c1[nH]ncc(Cl)c1Cl	H37Rv	resazurin	MIC bound		>6.25 µg/mL
CCCn1cnc2cc(NCc3ccc(Cl)cc3Cl)ccc21		GFP	inhibition	16 µM	90%
O=C1C(=O)c2cccnc2C(O)=C1CC1CCCCC1	H37Rv	resazurin	inhibition	6.25 µg/mL	18%
CC1=CC(=O)c2ccccc2C1=O	H37Ra ATCC 25177	broth dilution	MBC		16 µg/mL
CC(=O)Nc1cc(C)[nH]c(=O)c1-c1ccccc1	H37Ra		MIC		>256 µg/mL
S=C(Nc1ccc(Br)c(Cl)c1)SCc1ccc2c(c1)OCO2	H37Rv	BACTEC	inhibition	128 µg/mL	100%
COc1cc2c(cc1Cl)n([O-])c(C#N)c(N1CCN(c3ccc([N+](=O)[O-])cc3)CC1)[n+]2=O	H37Rv		inhibition	6.25 µg/mL	100%
OCc1ccccc1O[C@@H]1O[C@H](CO)[C@@H](O)[C@H](O)[C@H]1O	H37Rv	BACTEC	MIC		≥128 µg/mL
O=c1ccc2ncccc2n1CCN1CCC(NCc2cc(Cl)c(Cl)cn2)CC1	ATCC 27294	resazurin	MIC		0.04 µM
Cc1cc(O)c2c(c1)C(=O)C(c1c(C)cc3c(c1O)C(=O)C1OC1C3=O)=CC2=O	EMB-R		MIC		0.8 µg/mL
Oc1ccc(CCN=C=S)cc1	P multidrug-resistant	visual reading	MIC		4 µg/mL
COc1ccc(CC2c3ccccc3CCN2c2nc3c(cc2[N+](=O)[O-])c(=O)c(C(=O)O)c2sc4ccccc4n23)cc1	H37Rv (MTB)		MIC100		5.24 µM
CCOC1Oc2ccc([N+](=O)[O-])cc2C(=O)/C1=C\Nc1ccc(C(=O)O)c(O)c1	H37Rv		MIC		10 µg/mL
CCC1CN2CCC3(C(=O)Nc4ccccc43)C2CC1/C(=C/OC)C(=O)OC.Cl	H37Rv	BACTEC	inhibition	12.8 µg/mL	15%
CC(C)OC1Oc2ccc([N+](=O)[O-])cc2C(=O)/C1=C\Nc1ccc(C(=O)O)c(O)c1	H37Rv		MIC		25 µg/mL
N#Cc1nc2ccccc2nc1Cl	H37Rv		inhibition	6.25 µg/mL	94%
CC(C)C[C@@H]1NC(=O)[C@H](Cc2c[nH]c3ccccc23)NC(=O)[C@@H](CCCCN)NC(=O)[C@H](CC(N)=O)NC(=O)[C@H](C(C)C)NC(=O)[C@@H](CC(C)C)NC1=O	HN878	turbidity	MIC90		2.97 µM
Cc1nn(-c2ccccc2)c2c1C(c1cn(-c3ccccc3)nc1-c1ccc(F)cc1)C1=C(NC(C)(c3cc(O)c(Cl)c(O)c3)NC1=O)O2	MTCC 300	agar diffusion / agar	MIC		1000 µg/mL
CC12CCC(C(=O)N(c3nccs3)C1=O)C2(C)C	H37Rv	BACTEC	inhibition	12.5 µg/mL	16%
CC(C)C[C@@H]1NC(=O)[C@H](Cc2c[nH]c3ccccc23)NC(=O)[C@H](CCCCN)NC(=O)[C@H](CC(N)=O)NC(=O)[C@H](C(C)C)NC(=O)[C@@H](CC(C)C)NC1=O	HN878	turbidity	EC50		>30 µM
CN1C[C@H](c2ccccc2)[C@]2(CC3C=CC=CC3C2=O)[C@]12C(=O)c1cccc3cccc2c13	H37Rv	broth dilution / resazurin	EC90		>100 µM
O=C(O)c1c(=O)c2cc([N+](=O)[O-])c(N3CCC(n4c(=O)[nH]c5cc(Cl)ccc54)CC3)nc2n2c1sc1ccccc12	H37Rv (MTB)		MIC100		0.66 µM
C=C1C(=O)OC2C1C(OC(=O)/C(=C/C)COC(C)=O)CC1(CO1)C1C(OC(=O)/C(=C/C)CO)C=C(C)C21	H37Rv	BACTEC	MIC bound		>12.8 µg/mL
CC(C)C[C@@H]1NC(=O)[C@H](Cc2c[nH]c3ccccc23)NC(=O)[C@@H](CCCN=C(N)N)NC(=O)[C@H](CC(N)=O)NC(=O)[C@H](C(C)C)NC(=O)[C@@H](CC(C)C)NC1=O	HN878	turbidity	EC50		0.66 µM
CC1COc2c(N3CCN(C)CC3)c(F)cc3c(=O)c(C(=O)O)cn1c23	Erdman	resazurin	MIC		0.5 µg/mL
Cc1onc(-c2c(F)cccc2F)c1C(=O)N1CCN(c2nc3c(cc2[N+](=O)[O-])c(=O)c(C(=O)O)c2sc4ccccc4n23)CC1	H37Rv (MTB)		MIC100		9.67 µM
CO[C@H]1/C=C/O[C@@]2(C)Oc3c(C)c(O)c4c(O)c(c(/C=N/N5CCN(C6CCCC6)CC5)c(O)c4c3C2=O)NC(=O)/C(C)=C\C=C\[C@H](C)[C@H](O)[C@@H](C)[C@@H](O)[C@@H](C)[C@H](O)[C@@H]1C	Isolate 880902 rifampicin-resistant		MIC		>32 µg/mL
NNC(=O)C1CCC1C(=O)NN	H37Rv	BACTEC	inhibition	12.5 µg/mL	28%
Cc1nn(-c2ccccc2)c2c1C(c1cn(-c3ccccc3)nc1-c1ccc(Cl)cc1)C1=C(NC(C)(c3cc(O)c(Cl)c(O)c3)NC1=O)O2	MTCC 300	agar diffusion / agar	MIC		1000 µg/mL
COc1ccc(-c2c(O)cc(C)[nH]c2=O)cc1	H37Ra		MIC		>256 µg/mL
COc1nc2ccc(Br)cc2cc1[C@@H](c1ccccc1)[C@@](O)(CCN(C)C)c1cccc2ccccc12	H37Rv		MIC		0.03 µg/mL
O=C(O)c1cn2c(n1)CN(c1nc3c(cc1[N+](=O)[O-])c(=O)c(C(=O)O)c1sc4ccccc4n13)CC2	H37Rv (MTB)		MIC100		3.08 µM
CO[C@H]1/C=C/O[C@@]2(C)Oc3c(C)c(O)c4c(O)c(c(/C=N/N5CCN(C6CCCC6)CC5)c(O)c4c3C2=O)NC(=O)/C(C)=C\C=C\[C@H](C)[C@H](O)[C@@H](C)[C@@H](O)[C@@H](C)[C@H](OC(C)=O)[C@@H]1C	L400		MIC		0.1 µg/mL
CO[C@H]1/C=C/O[C@@]2(C)Oc3c(C)c(O)c4c(O)c(c(/C=N/N5CCN(C)CC5)c(O)c4c3C2=O)NC(=O)/C(C)=C\C=C\[C@H](C)[C@H](O)[C@@H](C)[C@@H](O)[C@@H](C)[C@H](OC(C)=O)[C@@H]1C	Erdman	BACTEC	MIC		0.063 µg/mL
CCN(CC)CCNC(=O)Nc1c(C#N)[n+]([O-])c2cc(Cl)c(Cl)cc2[n+]1[O-]	H37Rv		MIC		<12.5 µg/mL
CNC(=S)Nc1ccc(S(C)(=O)=O)cc1	H37Rv		MIC		>10 µg/mL
COc1ccc2c(c1)n([O-])c(C#N)c(N1CCN(c3ccc([N+](=O)[O-])cc3)CC1)[n+]2=O	H37Rv		EC50		<6.25 µg/mL
CC(C)C[C@@H]1NC(=O)[C@H](Cc2c[nH]c3ccccc23)NC(=O)[C@@H](CCCN)NC(=O)[C@H](CC(N)=O)NC(=O)[C@H](C(C)C)NC(=O)[C@@H](CC(C)C)NC1=O	HN353	turbidity	MIC90		2.97 µM
CCc1ccc2[nH]c3cc(C#N)c(=O)oc3c2c1	H37Rv	resazurin	MIC99		1.6 µg/mL
CN(C)CCCNC(=O)Nc1c(C#N)[n+]([O-])c2cc(F)ccc2[n+]1[O-]	H37Rv		inhibition	6.25 µg/mL	0%
S=C([S-])N(c1ccccc1)N(C(=S)[S-])c1ccccc1.[Na+].[Na+]	H37Rv	BACTEC	MIC		≥12.5 µg/mL
CCCCCCn1c(C)cc(O)c(-c2ccccc2)c1=O	H37Ra		MIC		8 µg/mL
O=C(O)C1CCCCC1C(=O)Nc1nc2ccccc2[nH]1	H37Rv	BACTEC	inhibition	0.5 µM	0%
CCCCCCCCCC#CCCC#CC(=O)O	H37Rv		MIC		145 µM
C=CCNC(=S)Nc1ccc(C(C)=O)cc1	H37Rv		MIC		5 µg/mL
COc1ccc2c(c1)[n+]([O-])c(C#N)c(NC(=O)OC(C)C)[n+]2[O-]	H37Rv		MIC		<12.5 µg/mL
Cc1ccc(-c2cc(-c3ccc(Cl)cc3)nc(/N=C3\C(=O)N(CN4CCOCC4)c4ccc(Br)cc43)n2)cc1	H37Rv	BACTEC	inhibition	6.25 µg/mL	91%
Cn1c2ccccc2c2nn3c(-c4ccccc4)nnc3nc21	H37Rv	resazurin	inhibition	6.25 µg/mL	37%
Cc1ccc(-c2cc(-c3ccc(Cl)cc3)nc(/N=C3\C(=O)N(CN4CCOCC4)c4ccccc43)n2)cc1	H37Rv	BACTEC	EC50		<6.25 µg/mL
N#Cc1cc2[nH]c3ccc(OC(F)(F)F)cc3c2oc1=O	H37Rv	resazurin	MIC99		3.6 µg/mL
CN1CCN(Cc2cccc(NC(=O)/C=C/c3ccccc3)c2)CC1	103471		MIC		8 µg/mL
Cn1ccnc1CCc1ccc(F)cc1F	H37Rv	resazurin	MIC bound		>6.25 µg/mL
CC(C)OC(=O)Nc1c(C#N)[n+]([O-])c2ccccc2[n+]1[O-]	H37Rv		MIC		<12.5 µg/mL
CCC1CC2CC(c3cc4c(cc3OC)N(C)C3C(O)(C(=O)OC)C(OC(C)=O)C5(CC)C=CCN6CCC43C65)c3[nH]c4ccccc4c3CCN(C1)C2	H37Rv	BACTEC	inhibition	12.5 µg/mL	-42%
CCOC1Oc2ccc(Cl)cc2C(=O)/C1=C\Nc1cccc(C(=O)O)c1O	H37Rv		MIC		>100 µg/mL
CNC(=S)Nc1ccc(C(C)=O)cc1	H37Rv		MIC		2.5 µg/mL
CO[C@]1([C@@H](Cl)c2ccccc2)C(=O)N(C)/C(=C/c2ccccc2)C(=O)N1C	H37Rv	BACTEC	inhibition	12.5 µg/mL	13%
COc1ccc2nc(Cl)c(C#N)nc2c1	H37Rv		inhibition	6.25 µg/mL	22%
C=CC(C)(O)CCC1C(=C)CCC2C(C)(C)CCCC12C	H37Rv		MIC bound		>6.25 µg/mL
COc1ccc(-c2nn(-c3ccccc3)cc2C2C3=C(NC(C)(c4cc(O)c(I)cc4Cl)NC3=O)Oc3c2c(C)nn3-c2ccccc2)cc1	MTCC 300	agar diffusion / agar	zone	0.5 mg/mL	2.5 mm
CNS(=O)(=O)c1cc([N+](=O)[O-])c(N2CCCCC2)c([N+](=O)[O-])c1	H37Rv	BACTEC	MIC bound		>12.5 µg/mL
O=C(Nc1ccc(Cn2ccnc2)cc1)c1ccc(-c2ccccc2)cc1	103471		MIC		>16 µg/mL

7 of the rows above, restated:

SMILES	strain	read by	measure	tested at	result
Cn1ccnc1CCc1ccc(F)cc1F	H37Rv	resazurin	MIC bound		>6.25 µg/mL
CC(C)OC(=O)Nc1c(C#N)[n+]([O-])c2ccccc2[n+]1[O-]	H37Rv		MIC		<12.5 µg/mL
CNS(=O)(=O)c1cc([N+](=O)[O-])c(N2CCCCC2)c([N+](=O)[O-])c1	H37Rv	BACTEC	MIC bound		>12.5 µg/mL
CC1=CC(=O)c2ccccc2C1=O	H37Ra ATCC 25177	broth dilution	MBC		16 µg/mL
CCCCCCCCCC#CCCC#CC(=O)O	H37Rv		MIC		145 µM
CC12CCC(C(=O)N(c3nccs3)C1=O)C2(C)C	H37Rv	BACTEC	inhibition	12.5 µg/mL	16%
CCc1ccc2[nH]c3cc(C#N)c(=O)oc3c2c1	H37Rv	resazurin	MIC99		1.6 µg/mL

An empty or dashed field is not shown. Zones are inhibition diameters on agar. ECn is the concentration giving n% inhibition of infection, replication or growth. MIC bound comes from a single tested concentration. Lines come from different laboratories, so protocols vary. MIC50, MIC90 and the like: level of inhibition, or share of isolates inhibited. a–b is a range or a potency band.